## Screening data, single-dose tests

Measurements from “University of Dundee, Small-Polar-MMV Screening Library” (2021), ChEMBL document CHEMBL3988442.

Mtb glucose medium: 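Phenotypic screen: M. tuberculosis growth, glucose 7H9 medium, 3 days; the read-out is not stated. Concentration: 500 µM. Higher reads as more growth inhibition (inferred: compounds with an IC50 in retests scored well above the rest). Of about 18,000 compounds tested this way, about 1,400 (7.9%) reached 50% or more in at least one test.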
Mtb cholesterol medium: 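Whole-cell growth test on Mycobacterium tuberculosis, read after 4 days in a medium based on cholesterol and the lipid DPPC; the read-out is not stated. Tested at 500 µM. Higher reads as more growth inhibition (inferred: compounds with an IC50 in retests scored well above the rest). Of about 18,000 compounds tested this way, about 900 (5%) reached 50% or more in at least one test.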

Values are the deposited “Percent Effect”, in %. The controls that fix the scale are not given in the record; negative values are as filed. This is part of a subset picked to be rich in strong results. A dash means the value is not listed here; it may have been measured.

| Compound | Mtb glucose medium | Mtb cholesterol medium |
|---|---|---|
| `Cc1c[nH]c(CN(C)Cc2ccc(N(C)C)nc2)n1` | - | 12.87% |
| `CC(C)(CO)CCCNC(=O)N1CCSCC1` | 10.13% | - |
| `Cc1cccc(C)c1OC1CN(C(=O)CS(C)(=O)=O)C1` | 30.81% | - |
| `CN(C)c1ccc(C(=O)Nc2ccncc2)cc1` | - | -0.3988% |
| `CC(C)Oc1ccccc1CN(C)CC(N)=O` | 11.91% | - |
| `CC(O)(CN)c1cccs1` (stereo not shown) | 12.82% | - |
| `COc1ccccc1CC(=O)N(C)C1CCS(=O)(=O)C1` (stereo not shown) | - | 25.16% |
| `CC(C)Oc1ccc(C(CN)N(C)C)cc1` (stereo not shown) | 81.93% | 49.93% |
| `COC(=O)c1ccc(C(=O)N(C)C2(C#N)CCC2)cc1` | 3.446% | - |
| `CCC1c2ccsc2CCN1CC(=O)NC` (stereo not shown) | 53.51% | 17.59% |
| `CCOCCC(=O)N1CCN(C(C)c2ccsc2)CC1` (stereo not shown) | 38.12% | - |
| `CCN1CCN(CC(=O)Nc2c(C)cccc2C)CC1` | 6.605% | - |
| `COCCSCC(=O)Nc1cccc(C#N)c1` | 29.73% | - |
| `N#Cc1c/c(=N\CC2CCCO2)cc[nH]1` (stereo not shown) | 5.506% | - |
| `Cc1nn(CC(=O)NCCc2c[nH]cn2)c(C)c1C` | -4.34% | - |
| `NCc1ccc(N2CCCS2(=O)=O)c(F)c1` | 1.737% | - |
| `COCCNC(=O)C(C)N(C)CC(C)C` (stereo not shown) | -4.906% | - |
| `COc1cc(OC)cc(Oc2cccc(CN)c2)c1` | - | -1.329% |
| `CCc1nc(N)nc(NCC(O)CN(C)C)c1C` (stereo not shown) | 7.514% | - |
| `c1ccc(-c2noc(C3CCCO3)n2)nc1` (stereo not shown) | 11.22% | 9.225% |
| `O=C(NCC(O)c1ccc(F)cc1)Nc1cnns1` (stereo not shown) | 58.77% | - |
| `CN1CCCCC1C(=O)NCCOCc1ccccc1` (stereo not shown) | 13.62% | - |
| `CCOc1ccc(Cl)cc1CNCCNCC(C)O` (stereo not shown) | - | 52.82% |
| `COCCCNS(=O)(=O)c1cccc2cc(C)cnc12` | 42.24% | - |
| `CCc1nc2c(c(NC)n1)CCNCC2` | - | -5.978% |
| `CCNC(=O)C(C)Nc1ccc(C)cc1C` (stereo not shown) | 42.32% | - |
| `Cn1cc(C(N)=O)nn1` | - | 2.058% |
| `CS(=O)(=O)N[C@@H]1CCCC[C@H]1N` | -1.775% | - |
| `COC(=O)c1ccc(C(=O)N=c2sccn2C)cc1` | - | -7.947% |
| `NCCOc1cccnc1` | -3.816% | - |
| `CN1CCCN(C(=O)Nc2cccc(F)c2)CC1` | 5.999% | - |
| `Clc1ccc2c(c1)CNCCO2` | 45.17% | 63.03% |
| `COC(=O)[C@@H](C)NC1CCN(c2ccccn2)CC1` | 15.68% | - |
| `CC(=O)NC1C(=O)N(C(C)C)c2ccc(C)cc21` (stereo not shown) | - | 15.61% |
| `CC(=O)NCCNS(=O)(=O)c1ccc(C)c(Cl)c1` | 46.26% | 21.07% |
| `O=C(Nc1cccc(OCC(F)F)n1)C1CCOC1` (stereo not shown) | - | 8.313% |
| `Cn1nnnc1SC(C(N)=O)c1ccc(Br)cc1` (stereo not shown) | 39.73% | 18.38% |
| `CS(=O)(=O)NC1CCCN(Cc2nnnn2C2CC2)C1` (stereo not shown) | 16.1% | - |
| `Cn1nccc1C(=O)NC1Cc2ccccc2C1` | 44.25% | - |
| `CC(C)C1CN(C)CCN1Cc1ccc(C#N)o1` (stereo not shown) | 13.03% | - |
| `c1ccc(NCCN2CCOCC2)cc1` | - | 12.67% |

Once more, the final 4:

* CS(=O)(=O)NC1CCCN(Cc2nnnn2C2CC2)C1 (stereo not shown) : Mtb glucose medium: 16.1%
* Cn1nccc1C(=O)NC1Cc2ccccc2C1 : Mtb glucose medium: 44.25%
* CC(C)C1CN(C)CCN1Cc1ccc(C#N)o1 (stereo not shown) : Mtb glucose medium: 13.03%
* c1ccc(NCCN2CCOCC2)cc1 : Mtb cholesterol medium: 12.67%